The record followed here is article PMC4694137.

For at least one entry, the source does not settle the construct or the ends of the probe.

The test system of this data set is AgaR2 (Streptococcus suis 05ZYH33). As to the kind of experiment: EMSA. The conditions noted are these: 0.5-5 pmol protein, 0.2 pmol probe, 20 uL; Roche DIG gel-shift binding buffer (composition and pH not stated), 20 min at room temperature, 0.2 pmol DIG-labeled probe, 0.5-5 pmol protein in 15-20 uL, native 7% PAGE; recombinant protein; protein details: N-terminal 6xHis (pET28a); label: DIG-ddUTP (3', terminal transferase). Background: A gel shift assay detects complexes by their altered migration in electrophoresis.

As to “AACACTTCTTTGTGGTTATGTCCAGTACTTTTTAAA (double strand) [SSU05_0448/9 site2 probe]”, the binding result is “binds”.
“ACTATTGGTTTGTGGTTATAACCAGTTAGGGTAAAG (double strand) [EF1809 site2 probe]”: the binding result was “binds”.
The result for “ATATTTGGTATATGGTTATAACCAGTTTGATAAGTA (double strand) [SSU05_1259 probe (agaA)]” reads “binds”; that for “TATAAGAAAAACTGGTTATAACCAGAAATCCCGGGG (double strand) [SSU05_0195 probe (agaS)]”, “binds”.
